System: T. b. brucei 427WT BSF
Assay: Metabolomics assay in T. b. brucei (LC-MS)
Assay type: cell-based, Trypanosoma brucei brucei
Details: 0.5×EC50 of 22, 2 h

O=C1C(Oc2cccc(CCCCCCCCO)c2)=CC(=O)c2c(O)cccc21 [Compound 22, 5‐Hydroxy‐2‐(3‐(8‐hydroxyoctyl)phenoxy)naphthalene‐1,4‐dione]
Treated/Control, sphinganine (m/z 302.3046): 1.654 | Treated/Control, [SP (16:0)] N‐(hexadecanoyl)sphing‐4‐enine (m/z 538.5181): 2.450 | Treated/Control, [SP (16:0)] N‐(hexadecanoyl)sphinganine (m/z 540.5348): 14.230 | Treated/Control, [SP (18:0)] N‐(octadecanoyl)sphing‐4‐enine (tR 5.6 min) (m/z 566.5493): 4.689 | Treated/Control, [SP (18:0)] N‐(octadecanoyl)sphing‐4‐enine (tR 3.8 min) (m/z 566.5504): 3.028 | Treated/Control, sphing‐8(Z)‐enine‐19:0, ceramide (m/z 578.5528): 6.708

Reference: paper PMC6686156, “Discovery of Sustainable Drugs for Neglected Tropical Diseases: Cashew Nut Shell Liquid (CNSL)‐Based Hybrids Target Mitochondrial Function and ATP Production in Trypanosoma brucei” (Chemmedchem, 2019)
